Earlier results, collected in patent US5872104A, “Combinations and methods for reducing antimicrobial resistance” (Oridigm Corporation, priority 1994, dated 1999).

tested on: human retrovirus; conditions: in vitro cytotoxicity vs activity; cited from earlier work

Compound	activity index
Nc1ncnc2c1ncn2C[C@H](O)CO [(S)-DHPA, 9(S)-(2,3-dihydroxypropyl)adenine]	> 3
Nc1nccc2c1ncn2[C@@H]1C[C@H](CO)[C@@H](O)[C@H]1O [carbocyclic 3-deazaadenosine, carbocyclic-3-deazaadenosine]	70
Nc1ncnc2c1ncn2[C@@H]1C=C(CO)[C@@H](O)[C@H]1O [NPA, neplanocin A]	> 20
